Compound potency records, mixed from different reports. Data source: NIAID ChemDB in PubChem.

Shared fields: target-level tests; species: Hepatitis C virus; target: NS3/NS4A protease; endpoint: IC50

a–b is a range or a potency band. Lines come from different laboratories, so protocols vary. ICn: concentration for n% inhibition. An empty or dashed field is not shown.

SMILES	strain or isolate	read by	value
C=C[C@H]1C[C@@]1(NC(=O)[C@@H]1C[C@@H](Oc2ccnc3cc(Cl)ccc23)CN1C(=O)[C@@H](NC(=O)OC1CCCC1)C(C)(C)C)C(=O)NS(=O)(=O)C1(CC#CCC)CC1	BMS		<0.05 µM
CCCCCCCCCCCCCCCCC/C(=C1\SC(=S)C(CC(=O)O)C1=O)c1ccccc1			4.4 µM
CCCCSC[C@@H](C=O)NC(=O)[C@H](CC(C)C)NC(=O)[C@@H](NC(=O)[C@H](Cc1ccccc1C)NC(=O)[C@H](CCC(=O)O)NC(=O)[C@H](CC(=O)O)NC(=O)CCC(=O)O)C(C)(C)C			0.165 µM
C=CC1CC1(NC(=O)C1C[C@@H](Oc2cc(-c3ccccc3)nc3cc(OC)ccc23)CN1C(=O)C(NC(=O)OC(C)(C)C)C(C)(C)C)C(=O)OCC	J4L6S		0.008 µM
C=C[C@H]1C[C@@]1(NC(=O)[C@@H]1C[C@@H](Oc2cc(-c3ccccc3)nc3cc(OC)ccc23)CN1C(=O)[C@@H](NC(=O)OC(C)(C)C)C(C)(C)C)C(=O)NS(=O)(=O)C1(CC)CC1	BMS		<0.05 µM
C=C[C@@H]1C[C@]1(NC(=O)[C@@H]1C[C@@H](Oc2cc(-c3ccccc3)nc3cc(OC)ccc23)CN1C(=O)[C@@H](NC(=O)OC(C)(C)C)C(C)(C)C)C(=O)NS(=O)(=O)C1CCCCC1	BMS		<0.5 µM
CSCC[C@H](NC(=O)[C@H](CCC(=O)O)NC(=O)[C@H](CC(=O)O)NC(=O)CCC(=O)O)C(=O)N[C@@H](CCC(=O)O)C(=O)N[C@@H](CCC(=O)O)C(=O)[C@@H](C)C=O			>200 µM
C=C[C@@H]1C[C@]1(NC(=O)[C@@H]1C[C@@H](Oc2cc(-c3ccccc3)nc3cc(OC)ccc23)CN1C(=O)[C@@H](NC(=O)c1ccco1)C(C)(C)C)C(=O)NS(=O)(=O)C1CC1	BMS		<0.05 µM
C=CC1CC1(NC(=O)[C@@H]1C[C@@H](OC(=O)Nc2ccccc2C(=O)OC)CN1C(=O)[C@@H](NC(=O)OC(C)(C)C)C(C)(C)C)C(=O)NS(=O)(=O)C1CC1	BMS/H77C/J416S		<0.1 µM
Cc1ccccc1C[C@H](NC(=O)[C@H](CCC(=O)O)NC(=O)[C@H](CC(=O)O)NC(=O)CCC(=O)O)C(=O)N[C@H](C(=O)N[C@@H](CC(C)C)C(=O)N[C@H](C=O)CSCCCc1ccccc1)C(C)(C)C			0.3 µM
C=C[C@@H]1C[C@]1(NC(=O)[C@@H]1C[C@@H](Oc2cc(-c3ccccc3)nc3cc(OC)ccc23)CN1C(=O)[C@H](CC(C)C)NC(=O)OC(C)(C)C)C(=O)NS(=O)(=O)C(F)(F)F	BMS		<5 µM
C=C[C@H]1C[C@@]1(NC(=O)[C@@H]1C[C@@H](Oc2cc(-c3ccccc3)nc3cc(OC)ccc23)CN1C(=O)[C@@H](NC(=O)OC(C)(C)C)C(C)C)C(=O)NS(=O)(=O)C1(COC)CC1	BMS		<0.05 µM
C=CC1C[C@]1(NC(=O)[C@@H]1C[C@@H](Oc2cc(-c3ccccc3)nc3cc(OC)ccc23)CN1C(=O)[C@@H](NC(=O)OC(C)(C)C)C(C)(C)C)C(=O)NS(=O)(=O)C1CCS(=O)(=O)C1	BMS		<0.1 µM
C=CC1CC1(NC(=O)[C@@H]1C[C@@H](OC(=O)Nc2ccccc2C)CN1C(=O)[C@@H](NC(=O)OC(C)(C)C)C(C)(C)C)C(=O)NS(=O)(=O)C1CC1	BMS/H77C/J416S		0.1–1 µM
C=C[C@@H]1C[C@]1(NC(=O)[C@@H]1C[C@@H](Oc2cc(-c3ccccc3)nc3cc(OC)ccc23)CN1C(=O)[C@@H](NC(=O)C(C)(C)C)C(C)(C)C)C(=O)NS(=O)(=O)C1CC1	BMS		<0.05 µM
C=CC1CC1(NC(=O)[C@@H]1C[C@@H](OC(=O)N2CCCC2)CN1C(=O)[C@@H](NC(=O)OC(C)(C)C)C(C)(C)C)C(=O)NS(=O)(=O)C1CC1	BMS/H77C/J416S		0.1–1 µM
C=C[C@@H]1C[C@]1(NC(=O)[C@@H]1C[C@@H](Oc2cc(-c3ccccc3)nc3cc(OC)ccc23)CN1C(=O)[C@@H](NC(=O)OCO)C(C)(C)C)C(=O)NS(=O)(=O)C1CC1	BMS		<0.05 µM
CCCCCCCCCCCCCNC(=O)c1c(O)cc(O)c([N+](=O)[O-])c1O		HPLC	100 µg/mL
C=CC1C[C@]1(NC(=O)[C@@H]1C[C@@H](Oc2cc(-c3ccccc3)nc3cc(OC)ccc23)CN1C(=O)[C@@H](NC(=O)OC(C)(C)C)C(C)(C)C)C(=O)NS(=O)(=O)c1cccs1	BMS		<0.1 µM
C=CC1CC1(NC(=O)[C@@H]1C[C@@H](Oc2cc(-c3ccccc3)nc3cc(OC)ccc23)CN1C(=O)[C@H](CC(C)C)NC(=O)OC(C)(C)C)C(=O)NS(C)(=O)=O	BMS		<0.5 µM
C=CC1CC1(NC(=O)[C@@H]1C[C@@H](OC(=O)Nc2ccccc2C(=O)c2ccccc2)CN1C(=O)[C@@H](NC(=O)OC(C)(C)C)C(C)(C)C)C(=O)NS(=O)(=O)C1CC1	BMS/H77C/J416S		<0.1 µM
C=CC1C[C@]1(NC(=O)[C@@H]1C[C@@H](Oc2cc(-c3ccccc3)nc3cc(OC)ccc23)CN1C(=O)[C@@H](NC(=O)OC(C)(C)C)C(C)(C)C)C(=O)NS(=O)(=O)c1nnc(NC(C)=O)s1	BMS		0.1–1 µM
C=C[C@@H]1C[C@]1(NC(=O)C1C[C@@H](Oc2cc(-c3csc(NC4CCCC4)n3)nc3cc(OC)ccc23)CN1C(=O)[C@@H](NC(=O)OC1CCCCC1)C(C)(C)C)C(=O)O			<0.1 µM
C=CC1C[C@@]1(NC(=O)[C@@H]1C[C@@H](Oc2cc(-c3ccccc3)nc3cc(OC)ccc23)CN1C(=O)[C@@H](NC(=O)[C@@H](OC)c1ccccc1)C(C)(C)C)C(=O)NS(=O)(=O)C1(CC2CC2)CC1	BMS		<0.05 µM
Cc1ccc(NC(=O)c2c(O)cc(O)c([N+](=O)[O-])c2O)cc1		HPLC	24.5 µg/mL
C=C[C@@H]1C[C@]1(NC(=O)C1C[C@@H](Oc2cc(-c3csc(NC4CCC4)n3)nc3cc(OC)ccc23)CN1C(=O)[C@@H](NC(=O)OC1CCCC1)C(C)(C)C)C(=O)O			<0.1 µM
C=C[C@@H]1C[C@]1(NC(=O)[C@@H]1C[C@@H](Oc2cc(-c3ccccc3)nc3cc(OC)ccc23)CN1C(=O)[C@@H](NC(=O)COC)C(C)(C)C)C(=O)NS(=O)(=O)C1CC1	BMS		<0.05 µM
C=C[C@H]1C[C@@]1(NC(=O)[C@@H]1C[C@@H](Oc2cc(-c3ccccc3)nc3cc(OC)ccc23)CN1C(=O)[C@@H](NC(=O)OC(C)(C)C)C(C)(C)C)C(=O)NS(=O)(=O)C1(CCCC)CC1	BMS		<0.05 µM
O=C(NCCOc1ccc(Oc2ccccc2)cc1)c1c(O)cc(O)c([N+](=O)[O-])c1O		HPLC	32.8 µg/mL
C=C[C@H]1C[C@@]1(NC(=O)[C@@H]1C[C@@H](Oc2cc(-c3ccccc3)nc3cc(OC)ccc23)CN1C(=O)[C@@H](NC(=O)NC(C)(C)C)C(C)(C)C)C(=O)NS(=O)(=O)C1(Cc2ccccc2)CC1	BMS		<0.05 µM
C#CC[C@@H](C=O)C(=O)[C@H](CCC(=O)O)NC(=O)[C@@H](CCC(=O)O)NC(=O)[C@H](Cc1ccc(C)cc1)NC(=O)[C@H](CCC(=O)O)NC(=O)[C@H](CC(=O)O)NC(=O)CCC(=O)O			20 µM
C=CC1C[C@]1(NC(=O)[C@@H]1C[C@@H](Oc2cc(-c3ccccc3)nc3cc(OC)ccc23)CN1C(=O)[C@@H](NC(=O)OC(C)(C)C)C(C)(C)C)C(=O)NS(=O)(=O)c1ccc(Sc2ccc(Cl)cc2)s1	BMS		0.1–1 µM
C=CC1CC1(NC(=O)[C@@H]1C[C@@H](OC(=O)Nc2ccc3c(c2)OCO3)CN1C(=O)[C@@H](NC(=O)OC(C)(C)C)C(C)(C)C)C(=O)NS(=O)(=O)C1CC1	BMS/H77C/J416S		0.1–1 µM
O=C(Nc1cccc(Cl)c1Cl)c1c(O)cc(O)c([N+](=O)[O-])c1O		HPLC	10.1 µg/mL
C=CC1CC1(NC(=O)[C@@H]1C[C@@H](Oc2cc(-c3ccccc3)nc3cc(OC)ccc23)CN1C(=O)[C@@H](NC(=O)OC(C)(C)C)C(C)(C)C)C(=O)NS(=O)(=O)C1([Si](C)(C)C)CC1	BMS		<0.05 µM

Repeating the final 2 entries:

SMILES,strain or isolate,read by,value
O=C(Nc1cccc(Cl)c1Cl)c1c(O)cc(O)c([N+](=O)[O-])c1O,,HPLC,10.1 µg/mL
C=CC1CC1(NC(=O)[C@@H]1C[C@@H](Oc2cc(-c3ccccc3)nc3cc(OC)ccc23)CN1C(=O)[C@@H](NC(=O)OC(C)(C)C)C(C)(C)C)C(=O)NS(=O)(=O)C1([Si](C)(C)C)CC1,BMS,,<0.05 µM